Data as given in PubChem BioAssay AID504761 (Drosophila RNAi Screening Center, 2011)

- Screen: 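Fly genes whose silencing reduces dengue virus type 2 infection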 (primary screen)
- Cells: D.Mel-2 cells from Drosophila
- Reagents: long dsRNA against Drosophila genes
- Challenge: infection with dengue virus type 2; dose and infection time not stated
- Detection: 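Cells stained for dengue envelope protein and imaged; percent of infected cells per well on duplicate plates, ranked by infection, with stained nuclei counted for cell number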
- Direction: infection score: higher = more virus-infected cells; cell count: higher = more cells in the well
- Call rule: 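Very low infection ranking in both replicate wells (chance probability at most 0.065), then a retest showing infection dropped 1.5-fold or more at p below 0.05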
- Calls: active = confirmed: knock-down lowers infection; inactive = not picked or not confirmed
In all, the deposit lists about 22,000 reagents; shown is a random part of those with a known target gene and a result. Over the whole deposit, 116 (0.52%) are marked active. 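Calls depend on retest data that are not deposited; infection was ranked per plate without normalising between plates; the unit of the infection score is not given.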 The raw values are shown without normalisation. Entries without a mark were called inactive. Names joined by + are all predicted targets of the reagent. Not given: the amount of reagent, the time to read-out.

The first 5 records, to show the layout:
no.	gene knocked down	DRSC id	infection score, replicate 1	infection score, replicate 2	cell count, replicate 1	cell count, replicate 2
1	CG6126	DRSC15971	9.52	10.5	6421	6593
2	CG9389	DRSC11857	18.2	8.01	5994	7214
3	JTBR	DRSC08667	1.44	3.52	6337	5970
4	Polr3K + Tcs1	DRSC05988	6.17	5.77	5788	6274
5	Polr3K + Tcs1	DRSC26790	2.63	5.21	6697	6353

The list itself, from the first entry:
no.	gene knocked down	DRSC id	infection score, replicate 1	infection score, replicate 2	cell count, replicate 1	cell count, replicate 2
1	CG6126	DRSC15971	9.52	10.5	6421	6593
2	CG9389	DRSC11857	18.2	8.01	5994	7214
3	JTBR	DRSC08667	1.44	3.52	6337	5970
4	Polr3K + Tcs1	DRSC05988	6.17	5.77	5788	6274
5	Polr3K + Tcs1	DRSC26790	2.63	5.21	6697	6353
6	nerfin-1	DRSC08729	2.76	1.09	6273	6151
7	ich	DRSC14448	2.05	5.76	6529	6826
8	ich	DRSC29647	12.6	11.9	829	5458
9	mxt	DRSC25001	1.28	1.47	6239	6131
10	Orc6	DRSC07497	2.97	13.8	6435	6012
11	mim	DRSC23045	1.21	6.45	5962	5951
12	mim	DRSC27684	8.34	3.81	5829	6688
13	por	DRSC20362	3.1	6.96	5896	6218
14	por	DRSC29877	11.3	14	5561	5875
15	HisRS	DRSC19986	1.51	1.51	5686	5839
16	Chchd2	DRSC19931	1.58	4.53	5933	6273
17	Chchd2	DRSC29551	29.4	3	6098	566
18	Oamb	DRSC13433	0.86	0.08	6052	6073
19	Oamb	DRSC15120	3.13	2.51	6527	6134
20	Oamb	DRSC16763	1.06	3.19	6589	6059
21	CG32726	DRSC17521	1.75	11.1	6177	6539
22	CG9662	DRSC00723	8.16	3.55	6485	6797
23	Rh4	DRSC11268	1.36	13.7	6493	6881
24	Rh4	DRSC27381	37.3	44.5	6658	5602
25	CG17010	DRSC02559	25.9	15.4	6901	6301
26	CG17010	DRSC29558		29.3	340	4918
27	CG12289	DRSC09874	0.95	1.21	6101	6355
28	CG13137	DRSC02234	5.27	4.41	6780	6736
29	CG10098	DRSC12509	11.1	23.5	5570	5766
30	CG10098	DRSC26223	11.1	4.66	6023	5841
31	CG34450	DRSC17822	5.99	4.71	6457	6333
32	CG34450	DRSC25085	5.24	7.53	5401	5324
33	CG31740	DRSC01619	2.49	0.98	5709	5613
34	Ranbp16	DRSC20160	2.36	2.04	6513	6173
35	CG10862	DRSC08170	0.62	4.89	6448	6518
36	Asx	DRSC23408	2.92	8.59	6002	6054
37	Cpr72Ea	DRSC10451	1.25	3.93	6539	6430
38	EMC8-9	DRSC04380	9.62	14.5	6184	6038
39	CG7990	DRSC19296	4.66	7.43	5885	5950
40	CG7990	DRSC23195	1.45	15.1	6001	6842
41	CG7990	DRSC26580	12.9	3.14	5958	5989
42	cl	DRSC02118	4.7	9.7	6442	6269
43	NijB	DRSC09850	4.06	8.96	517	6598
44	wake	DRSC16148	1.47	5.19	6333	5222
45	wake	DRSC16149	1.95	2.64	6153	5757
46	CG42673	DRSC08989	3.14	2.73	6179	6301
47	CG42673	DRSC08991	0.94	7.39	961	1178
48	CG42673	DRSC10177	3.33	3.04	5774	5889
49	CG42673	DRSC10264	0.78	2.29	6022	6110
50	CG42673	DRSC10353	5.25	3.36	6212	6165
51	CG42673	DRSC10354	1.92	4.99	5980	6776
52	CG42673	DRSC25788	9.54	1.74	5996	6671
53	CG15390	DRSC00404	3.25	2.59	6647	6795
54	CG3437	DRSC10366	0.91	3.7	6045	6244
55	CG3437	DRSC24768	1.87	2.25	7015	6456
56	Rop	DRSC08693	5.3	4.9	5694	5610
57	Rop	DRSC26024	4.63	4.95	5766	5500
58	PolrMT	DRSC00660	7.92	14.8	4341	4621
59	SkpA	DRSC18833	11.1	11.4	3844	3479
60	SkpA	DRSC25163	3.63	3.66	5930	6096
61	CaBP1	DRSC01984	12.6	6.13	6467	6181
62	CG8100	DRSC10961	2	2.17	5737	5947
63	CG3687	DRSC06850	4.35	13.6	827	3129
64	CG3687	DRSC29588			349	359
65	p23	DRSC15158	12.3	31.7	2912	5664
66	p23	DRSC27806	10.9	13.3	6635	6417
67	Dlip2	DRSC12346	8.92	5.35	6667	6652
68	Cat	DRSC11110	3.24	2.64	6800	6640
69	Cat	DRSC24077	9.24	8.17	6059	6024
70	CG14000	DRSC02332	2.58	1.06	6321	6386
71	Lrch	DRSC02996	13	3.65	3606	6215
72	Lrch	DRSC29145	9.27		3668	271
73	kmr	DRSC14827	1.14	1.63	6206	6392
74	kmr	DRSC14828	0.57	1.99	6518	6321
75	kmr	DRSC16472	6.93	7.94	6736	6638
76	kmr	DRSC25867	2.75	2.21	6154	6244
77	kmr	DRSC28945	16.5		3412	421
